Values from PubChem BioAssay AID1224833 (University of Georgia, 2016).
This is an unselected part of about 12,000 reagents. Of all reagents, about 5,600 (46%) are marked active. 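Active calls cover z-scores past 1 in both directions, so they include lowered as well as raised rotavirus replication.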 Entries without a mark were called inactive.

- Aim: 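Human genes whose knock-down alters rotavirus replication in monkey cells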 (primary screen)
- Cell system: monkey MA104 kidney cells
- Reagents: siRNA pool against human genes, 50 nM
- Time to read-out: 48 h knock-down before infection; read 24 h after infection
- Challenge: infection with rotavirus strain RV3 two days after transfection; infectious dose for this stage not given
- Detection: 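z-score of rotavirus antigen signal per well, from a fluorescent immunoassay, relative to non-targeting control wells on the same plate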
- Reading the numbers: z-score vs non-targeting control: higher = more rotavirus replication than with non-targeting control
- Active means: In these data the active calls have z-score vs non-targeting control at about -1 or lower, or at about 1 or higher
- Meaning of the calls: active = z-score beyond 1 either way; inactive = z-score within 1 of zero

| Gene | z-score vs non-targeting control |
| --- | --- |
| PCDHB9 (protocadherin beta 9) | 0.17 |
| CLSTN2 (calsyntenin 2) | -1.51 (active) |
| CD3D (CD3 delta subunit of T-cell receptor complex) | 1.48 (active) |
| LCE2A (late cornified envelope 2A) | -0.467 |
| RBM45 (RNA binding motif protein 45) | -1.54 (active) |
| PGAP6 (post-GPI attachment to proteins 6) | -1.35 (active) |
| EMCN (endomucin) | -0.828 |
| MMP19 (matrix metallopeptidase 19) | -3.72 (active) |
| CPNE2 (copine 2) | -2.06 (active) |
| TFEC (transcription factor EC) | 0.786 |
| MORF4L1 (mortality factor 4 like 1) | 0.0971 |
| HEYL | -0.629 |
| PPDPF | -1.78 (active) |
| INO80D (INO80 complex subunit D) | -1.69 (active) |
| DEFB127 (defensin beta 127) | 1.21 (active) |
| TTC7B (tetratricopeptide repeat domain 7B) | -1.9 (active) |
| ELAC1 (elaC ribonuclease Z 1) | 1.3 (active) |
| LY6G6C (lymphocyte antigen 6 family member G6C) | -1.22 (active) |
| CALD1 (caldesmon 1) | -0.327 |
| GALNS (galactosamine (N-acetyl)-6-sulfatase) | -1.46 (active) |
| ZDHHC17 (zDHHC palmitoyltransferase 17) | -0.304 |
| SLC4A10 | -1.99 (active) |
| LRRC34 (leucine rich repeat containing 34) | 1.97 (active) |
| MAGEA4 (MAGE family member A4) | -1.26 (active) |
| CD207 (CD207 molecule) | 0.385 |
| CDNF (cerebral dopamine neurotrophic factor) | 0.663 |
| BORA (BORA aurora kinase A activator) | -0.769 |
| OR52N1 (olfactory receptor family 52 subfamily N member 1) | -0.39 |
| ARPIN (actin related protein 2/3 complex inhibitor) | 1.14 (active) |
| PDGFB (platelet derived growth factor subunit B) | 0.163 |
| CD70 (CD70 molecule) | 1.36 (active) |
| MYBL2 (MYB proto-oncogene like 2) | -0.883 |
| ANXA5 (annexin A5) | 1.24 (active) |
| WDR62 (WD repeat domain 62) | 3.04 (active) |
| MEGF10 (multiple EGF like domains 10) | -2.04 (active) |
| ARHGAP10 (Rho GTPase activating protein 10) | -2.51 (active) |
| IL17RD (interleukin 17 receptor D) | -0.939 |
| MKKS (MKKS centrosomal shuttling protein) | -0.808 |
| PLCB1 (phospholipase C beta 1) | -1.14 (active) |
| STN1 (STN1 subunit of CST complex) | 1.65 (active) |
| HSD17B3 (hydroxysteroid 17-beta dehydrogenase 3) | -1.45 (active) |
| IKZF3 (IKAROS family zinc finger 3) | -1.06 (active) |
| CDPF1 (cysteine rich DPF motif domain containing 1) | -1.49 (active) |
| RAP2C (RAP2C, member of RAS oncogene family) | 1.13 (active) |
| AEN (apoptosis enhancing nuclease) | 0.852 |
| SPDYA (speedy/RINGO cell cycle regulator family member A) | 0.936 |
| OR1L8 (olfactory receptor family 1 subfamily L member 8) | 0.274 |
| SLITRK3 (SLIT and NTRK like family member 3) | -2.61 (active) |
| FAF2 (Fas associated factor family member 2) | 0.461 |
| ZNF681 (zinc finger protein 681) | -1.1 (active) |
| TMEM132E-DT (TMEM132E divergent transcript) | 0.466 |
| MMP28 (matrix metallopeptidase 28) | 1.55 (active) |
| LGALS8 (galectin 8) | -1.66 (active) |
| SLC4A5 | -1.97 (active) |
| ACTL6A (actin like 6A) | 2.2 (active) |
| FDPS (farnesyl diphosphate synthase) | -1.38 (active) |
| H3C11 (H3 clustered histone 11) | 0.143 |
| OR2Y1 (olfactory receptor family 2 subfamily Y member 1) | 0.0316 |
| SSTR2 (somatostatin receptor 2) | 0.579 |
| TMEM183BP (transmembrane protein 183B, pseudogene) | -1.2 (active) |
| RAD50 (RAD50 double strand break repair protein) | -0.74 |
| DRP2 (dystrophin related protein 2) | -2.69 (active) |
| PKIG (cAMP-dependent protein kinase inhibitor gamma) | -1.02 (active) |
| SLC2A13 | 1.13 (active) |
| LSR (lipolysis stimulated lipoprotein receptor) | -1.06 (active) |
| DUX1 (double homeobox 1) | -0.734 |
| TESC (tescalcin) | -1.07 (active) |
| SFXN5 (sideroflexin 5) | 0.685 |
| TNS4 (tensin 4) | 0.49 |
| IL17RE (interleukin 17 receptor E) | -0.0382 |
| XKRX (XK related X-linked) | -0.478 |
| ALOXE3 (arachidonate epidermal lipoxygenase 3) | 0.618 |
| HOMER2 (homer scaffold protein 2) | 0.0738 |
| GCKR (glucokinase regulator) | -3.16 (active) |
| PTGFRN (prostaglandin F2 receptor inhibitor) | 2.94 (active) |
| OR5D18 (olfactory receptor family 5 subfamily D member 18) | -1.77 (active) |
| DAZAP1 (DAZ associated protein 1) | -1.34 (active) |
| GPIHBP1 | -2.86 (active) |
| PLEKHO2 (pleckstrin homology domain containing O2) | -0.119 |
| IGFLR1 (IGF like family receptor 1) | 0.501 |
| IFNA6 (interferon alpha 6) | -0.0157 |
| BOLA1 (bolA family member 1) | -2.61 (active) |
| DIMT1 (DIM1 rRNA methyltransferase and ribosome maturation factor) | -0.746 |
| POMC (proopiomelanocortin) | 0.656 |
| RASGRP3 (RAS guanyl releasing protein 3) | -3.54 (active) |
| ZBTB25 (zinc finger and BTB domain containing 25) | -0.979 |
| SLC7A3 | -0.86 |
| P2RY11 (purinergic receptor P2Y11) | 0.947 |
| PAPPA (pappalysin 1) | 1.14 (active) |
| CCDC172 (coiled-coil domain containing 172) | 0.232 |
| TIRAP (TIR domain containing adaptor protein) | -0.383 |
| H4C16 (H4 histone 16) | -0.438 |
| SLC7A1 | -2.35 (active) |
| HEATR1 (HEAT repeat containing 1) | 0.38 |
| UPK3A (uroplakin 3A) | -0.868 |
| RBM15 (RNA binding motif protein 15) | -2.42 (active) |
| AZIN1 (antizyme inhibitor 1) | -1.39 (active) |
| ARF1 (ARF GTPase 1) | 0.871 |
| MYL5 (myosin light chain 5) | -0.813 |
| SKA1 (spindle and kinetochore associated complex subunit 1) | 0.445 |
| PFDN6 (prefoldin subunit 6) | 0.305 |
| CHST11 (carbohydrate sulfotransferase 11) | 1.63 (active) |
| MYO19 (myosin XIX) | -1.51 (active) |
| DNER (delta/notch like EGF repeat containing) | -0.35 |
| C2orf68 (chromosome 2 open reading frame 68) | -2.12 (active) |
| TMEM41B (transmembrane protein 41B) | -0.391 |
| PRAMEF6 (PRAME family member 6) | -0.664 |
| SUGP2 (SURP and G-patch domain containing 2) | 1.77 (active) |
| NUSAP1 (nucleolar and spindle associated protein 1) | -2.39 (active) |
| SPATA33 (spermatogenesis associated 33) | -0.564 |

9 entries from above, set out differently.
Gene | z-score vs non-targeting control
SLC7A1 | -2.35 (active)
HEATR1 (HEAT repeat containing 1) | 0.38
UPK3A (uroplakin 3A) | -0.868
RBM15 (RNA binding motif protein 15) | -2.42 (active)
AZIN1 (antizyme inhibitor 1) | -1.39 (active)
ARF1 (ARF GTPase 1) | 0.871
MYL5 (myosin light chain 5) | -0.813
SKA1 (spindle and kinetochore associated complex subunit 1) | 0.445
PFDN6 (prefoldin subunit 6) | 0.305
